Anti-infective test results gathered from many reports (values: NIAID ChemDB through PubChem).

Common to all: tests in culture; organism: Mycobacterium avium intracellulare; read-out: MIC

An empty or dashed field is not shown. Conditions beyond the fields shown may differ between rows.

smiles,strain or isolate,value
COc1cc(NC(C)CCCN)c2nc(C(C)(C)C)cc(C)c2c1Oc1cccc(C(F)(F)F)c1,,5 µg/mL
C/C=C/c1ccc(OC(=O)/C(C)=C/C)cc1,ATCC 19709,20 µg/mL
CCS/C(N)=N/N=C/c1nc2ccccc2o1,CNCTC D38/92,63 µM
CC[C@H]1OC(=O)[C@H](C)[C@@H](O[C@H]2C[C@@](C)(OC)[C@@H](OC(C)=O)[C@H](C)O2)[C@H](C)[C@@H](O[C@@H]2O[C@H](C)C[C@H](N(C)C)[C@H]2OC(=O)NN2CCCC2)C(C)(O)C[C@@H](C)/C(=N\OCCCC2CCCCC2)[C@H](C)[C@@H](O)[C@]1(C)O,20066 (clarithromycin-susceptible),0.39 µg/mL
Cc1ccc2oc(/C=N/N=C(\N)c3ccccn3)nc2c1,,>16 µg/mL
CO[C@H]1/C=C/O[C@@]2(C)Oc3c(C)c(O)c4c(O)c(c5c(c4c3C2=O)NC2(CCN(CC(C)C)CC2)N=5)=NC(=O)/C(C)=C\C=C\[C@H](C)[C@H](O)[C@@H](C)[C@@H](O)[C@@H](C)[C@H](OC(C)=O)[C@@H]1C,N-809 (HIV-),0.2 µg/mL
CS/C(N)=N/N=C/c1ccc2ccccc2n1,CNCT D39/93,>1000 µM
CC[C@H]1OC(=O)[C@H](C)[C@@H](O[C@H]2C[C@@](C)(OC)[C@@H](OC(C)=O)[C@H](C)O2)[C@H](C)[C@@H](O[C@@H]2O[C@H](C)C[C@H](N(C)C)[C@H]2OC(=O)NNc2ccccc2)C(C)(O)C[C@@H](C)/C(=N\OCCCC2CCCCC2)[C@H](C)[C@@H](O)[C@]1(C)O,20066 (clarithromycin-susceptible),≤0.2 µg/mL
C=CCc1ccc(OC(=O)/C(C)=C/C)cc1,ATCC 19709,10 µg/mL
N/C(=N\N=C\c1ccncc1)c1ccccn1,,>16 µg/mL
CC[C@H]1OC(=O)[C@H](C)[C@@H](OC2C[C@@](C)(OC)[C@@H](O)[C@H](C)O2)[C@H](C)[C@@H](O[C@@H]2O[C@H](C)C[C@H](N(C)C)[C@H]2O)C(C)(O)C[C@@H](C)/C(=N\OCCc2ccccc2)[C@H](C)[C@@H](O)[C@]1(C)O,20066,1.56 µg/mL
CO[C@H]1/C=C/O[C@@]2(C)Oc3c(C)c(O)c4c(=O)c(c5oc6cc(N7CCN(CC(C)C)CC7)cc(=O)c6nc5c4c3=C2O)NC(=O)/C(C)=C\C=C\[C@H](C)[C@H](O)[C@@H](C)[C@@H](O)[C@@H](C)[C@H](OC(C)=O)[C@@H]1C,N-551 (HIV-),0.0313 µg/mL
CCNC(=O)[C@@H](NC(=O)Cc1ccccc1)[C@@H]1N[C@@H](C(=O)NCCNC(=O)[C@@H]2N[C@@H]([C@H](NC(=O)Cc3ccccc3)C(=O)NCC)SC2(C)C)C(C)(C)S1,CIPT 140310001,50 µg/mL
CC[C@H]1OC(=O)[C@H](C)[C@@H](OC2C[C@@](C)(OC)[C@@H](O)[C@H](C)O2)[C@H](C)[C@@H](O[C@@H]2O[C@H](C)C[C@H](N(C)C)[C@H]2O)C(C)(O)C[C@@H](C)/C(=N\OCCCC2CCCCC2)[C@H](C)[C@@H](O)[C@]1(C)O,20066,6.25 µg/mL
CN[C@@H]1[C@H](O[C@H]2[C@H](O[C@H]3[C@H](O)[C@@H](O)[C@H](N=C(N)N)[C@@H](O)[C@@H]3N=C(N)N)O[C@@H](C)[C@]2(O)C=O)O[C@@H](CO)[C@H](O)[C@H]1O,CIPT 140310054,>50 µg/mL
CCn1c(S)c(N=NC(N)=O)c2ccccc21,CNCTC D39/93,100 µM
CCCCCCCCCCCCO/N=C1\[C@H](C)CC(C)(O)[C@H](O[C@@H]2O[C@H](C)C[C@H](N(C)C)[C@H]2O)[C@@H](C)[C@H](OC2C[C@@](C)(OC)[C@@H](O)[C@H](C)O2)[C@@H](C)C(=O)O[C@H](CC)[C@@](C)(O)[C@H](O)[C@H]1C,20066,50 µg/mL
CCCCCCCCCCC(=O)O[C@H]1[C@H](C)OC(O[C@H]2[C@H](C)[C@@H](O[C@@H]3O[C@H](C)C[C@H](N(C)C)[C@H]3O)C(C)(O)C[C@@H](C)/C(=N\OCCCOc3ccccc3)[C@H](C)[C@@H](O)[C@](C)(O)[C@@H](CC)OC(=O)[C@@H]2C)C[C@@]1(C)OC,20066 (clarithromycin-susceptible),1.56 µg/mL
O=C1C(=S)N(Cc2ccccc2)c2ccccc21,CNCTC D39/93,125 µM
CCCCCCSc1ncnc2ccccc12,D 38/92,125 µM
CCS/C(N)=N/N=C/c1ccc2ccccc2n1.CCS/C(N)=N/N=C/c1ccc2ccccc2n1,CNCTC D38/92,32 µM
N/C(=N\N=C\c1ccncc1)c1cnccn1,,>16 µg/mL
CO[C@H]1/C=C/O[C@@]2(C)Oc3c(C)c(=O)c4c(O)c(c5oc6cc(N7CCCCCC7)ccc6nc5c4c3C2=O)NC(=O)/C(C)=C\C=C\[C@H](C)[C@H](O)[C@@H](C)[C@@H](O)[C@@H](C)[C@H](OC(C)=O)[C@@H]1C,Shibazaki,2.5 µg/mL
CC[C@H]1OC(=O)[C@H](C)[C@@H](O[C@H]2C[C@@](C)(OC)[C@@H](O)[C@H](C)O2)[C@H](C)[C@@H](O[C@@H]2O[C@H](C)C[C@H](N(C)C)[C@H]2O)[C@](C)(OC)C[C@@H](C)C(=O)[C@H](C)[C@@H](O)[C@]1(C)O,N-897 (HIV-),0.5 µg/mL
O=C1C(=S)N(c2ccccc2)c2ccccc21,CNCTC D39/93,63 µM
CC[C@H]1OC(=O)[C@H](C)[C@@H](OC2C[C@@](C)(OC)[C@@H](OC(=O)CCCc3ccccc3)[C@H](C)O2)[C@H](C)[C@@H](O[C@@H]2O[C@H](C)C[C@H](N(C)C)[C@H]2O)C(C)(O)C[C@@H](C)/C(=N\OCCCOc2ccccc2)[C@H](C)[C@@H](O)[C@]1(C)O,20066 (clarithromycin-susceptible),0.78 µg/mL
CC(C)N=c1cc2n(-c3ccc(Cl)cc3)c3ccccc3nc-2cc1Nc1ccc(Cl)cc1,P39,5 µg/mL
N/C(=N\N=C\c1ccccn1)c1ccccn1,,>16 µg/mL
CO[C@H]1/C=C/O[C@@]2(C)Oc3c(C)c(O)c4c(O)c(c(/C=N/N5CCN(C6CCCC6)CC5)c(O)c4c3C2=O)NC(=O)/C(C)=C\C=C\[C@H](C)[C@H](O)[C@@H](C)[C@@H](O)[C@@H](C)[C@H](OC(C)=O)[C@@H]1C,SKV,0.5 µg/mL
CC[C@H]1OC(=O)[C@H](C)[C@@H](OC2C[C@@](C)(OC)[C@@H](O)[C@H](C)O2)[C@H](C)[C@@H](O[C@@H]2O[C@H](C)C[C@H](N(C)C)[C@H]2O)C(C)(O)C[C@@H](C)/C(=N\OCCOc2ccccc2)[C@H](C)[C@@H](O)[C@]1(C)O,20066,3.13 µg/mL
CCOCCN(CCOCC)c1ccc2nc3c(oc2c1)c1c(O)c2c(=O)c(C)c4c(c23)C(=O)[C@@](C)(O/C=C/[C@H](OC)[C@@H](C)[C@@H](OC(C)=O)[C@H](C)[C@H](O)[C@H](C)[C@@H](O)[C@@H](C)/C=C/C=C(/C)C(=O)N1)O4,Shibazaki,0.63 µg/mL
CCCSc1ncnc2ccccc12,D 39/93,125 µM
CCCCCCCS/C(N)=N/N=C/c1ccc2ccccc2n1,CNCTC D38/92,32 µM
NC(=S)N=Nc1c(S)n(-c2ccccc2)c2ccccc12,CNCTC D38/92,125 µM
CC1(C)S[C@@H]2[C@H](NC(=O)[C@H](C(=O)[O-])c3ccsc3)C(=O)N2[C@H]1C(=O)[O-].[Na+].[Na+],CIPT 140310031,25 µg/mL
CCCCO/N=C1\[C@H](C)CC(C)(O)[C@H](O[C@@H]2O[C@H](C)C[C@H](N(C)C)[C@H]2O)[C@@H](C)[C@H](OC2C[C@@](C)(OC)[C@@H](O)[C@H](C)O2)[C@@H](C)C(=O)O[C@H](CC)[C@@](C)(O)[C@H](O)[C@H]1C,20066,1.56 µg/mL
CO[C@H]1/C=C/O[C@@]2(C)Oc3c(C)c(O)c4c(O)c(c5c(c4c3C2=O)NC2(CCN(CC(C)C)CC2)N=5)=NC(=O)/C(C)=C\C=C\[C@H](C)[C@H](O)[C@@H](C)[C@@H](O)[C@@H](C)[C@H](OC(C)=O)[C@@H]1C,CIPT 140310023,0.05 µg/mL
CC[C@H]1OC(=O)[C@H](C)[C@@H](OC2C[C@@](C)(OC)[C@@H](O)[C@H](C)O2)[C@H](C)[C@@H](O[C@@H]2O[C@H](C)C[C@H](N(C)C)[C@H]2O)C(C)(O)C[C@@H](C)/C(=N\OCCCc2ccccc2)[C@H](C)[C@@H](O)[C@]1(C)O,20066,1.56 µg/mL
CC[C@H]1OC(=O)[C@H](C)[C@@H](O[C@H]2C[C@@](C)(OC)[C@@H](O)[C@H](C)O2)[C@H](C)[C@@H](O[C@@H]2O[C@H](C)C[C@H](N(C)C)[C@H]2O)[C@](C)(OC)C[C@@H](C)C(=O)[C@H](C)[C@@H](O)[C@]1(C)O,20066 (clarithromycin-susceptible),3.13 µg/mL
CCCCCCCCCCCCCCCCSc1ncnc2ccccc12,D 39/93,>1000 µM
CO[C@H]1/C=C/O[C@@]2(C)Oc3c(C)c(=O)c4c(O)c(c5oc6cc(N7CCCCC7)ccc6nc5c4c3C2=O)NC(=O)/C(C)=C\C=C\[C@H](C)[C@H](O)[C@@H](C)[C@@H](O)[C@@H](C)[C@H](OC(C)=O)[C@@H]1C,Shibazaki,0.63 µg/mL
CC(C)Sc1ncnc2ccccc12,D 39/93,63 µM
CCCC(=O)O[C@H]1[C@H](C)OC(O[C@H]2[C@H](C)[C@@H](O[C@@H]3O[C@H](C)C[C@H](N(C)C)[C@H]3O)C(C)(O)C[C@@H](C)/C(=N\OCCCOc3ccccc3)[C@H](C)[C@@H](O)[C@](C)(O)[C@@H](CC)OC(=O)[C@@H]2C)C[C@@]1(C)OC,20066 (clarithromycin-susceptible),0.78 µg/mL
C/C=C(\C)C(=O)Oc1ccc([C@H]2O[C@@H]2C)cc1,,5.39 µg/mL
CC[C@H]1OC(=O)[C@H](C)[C@@H](OC2C[C@@](C)(OC)[C@@H](O)[C@H](C)O2)[C@H](C)[C@@H](O[C@@H]2O[C@H](C)C[C@H](N(C)C)[C@H]2O)C(C)(O)C[C@@H](C)/C(=N\OCC2CCCCC2)[C@H](C)[C@@H](O)[C@]1(C)O,20066,6.25 µg/mL
C=CCSc1ncnc2ccccc12,D 38/92,250 µM
CC[C@H]1OC(=O)[C@H](C)[C@@H](OC2C[C@@](C)(OC)[C@@H](OC(=O)CC3CCCCC3)[C@H](C)O2)[C@H](C)[C@@H](O[C@@H]2O[C@H](C)C[C@H](N(C)C)[C@H]2O)C(C)(O)C[C@@H](C)/C(=N\OCCCOc2ccccc2)[C@H](C)[C@@H](O)[C@]1(C)O,20066 (clarithromycin-susceptible),1.56 µg/mL

A second listing of 3 rows from above:

smiles	strain or isolate	value
CC1(C)S[C@@H]2[C@H](NC(=O)[C@H](C(=O)[O-])c3ccsc3)C(=O)N2[C@H]1C(=O)[O-].[Na+].[Na+]	CIPT 140310031	25 µg/mL
CCCSc1ncnc2ccccc12	D 39/93	125 µM
CO[C@H]1/C=C/O[C@@]2(C)Oc3c(C)c(O)c4c(O)c(c5c(c4c3C2=O)NC2(CCN(CC(C)C)CC2)N=5)=NC(=O)/C(C)=C\C=C\[C@H](C)[C@H](O)[C@@H](C)[C@@H](O)[C@@H](C)[C@H](OC(C)=O)[C@@H]1C	N-809 (HIV-)	0.2 µg/mL